Anti-infective test results gathered from many reports (values: NIAID ChemDB through PubChem).

Common to all: whole-cell or culture tests; species: Candida albicans

Lines come from different laboratories, so protocols vary.

Cc1ccc(-c2c3c(N)c4c(nc3nc3c2c(C)nn3-c2ccccc2)CCCC4)cc1 ; endpoint: MIC100 ; read by: broth dilution / absorbance ; strain: CCC 130 ; value: 31.2 µg/mL
CC(C)(O)c1cn(-c2cccc3ccccc23)nn1 ; dose: 2048 µg/mL ; endpoint: inhibition ; read by: broth dilution ; strain: URM 4987 ; value: 0%
OC(CN1CCN(c2ccc(OCc3ccncc3)cc2)CC1)(Cn1cncn1)c1ccc(F)cc1F ; endpoint: MIC80 ; strain: 304004 ; value: ≤0.063 µg/mL
Cc1ccc(-c2c3c(N)c4c(nc3nc3c2c(C)nn3-c2ccccc2)CCC4)cc1 ; endpoint: MIC100 ; read by: broth dilution / absorbance ; strain: CCC 129 ; value: 125 µg/mL
C[C@@H](N1CCN(Cc2cn(Cc3ccc(Cl)cc3Cl)c3ccccc23)CC1)[C@](O)(Cn1cncn1)c1ccc(F)cc1F ; endpoint: MIC80 ; read by: resazurin ; strain: ATCC 64548 ; value: 0.25 µg/mL
Nc1[nH]c(=O)ncc1F ; endpoint: EC90 ; read by: broth dilution ; conditions: pH 7 ; strain: 15 isolates ; value: 1 µg/mL
C[C@@H](N1CCN(Cc2cn(Cc3ccc(F)cc3F)c3ccc(C#N)cc23)CC1)[C@](O)(Cn1cncn1)c1ccc(F)cc1F ; endpoint: MIC80 ; read by: resazurin ; strain: ATCC 36082 ; value: 0.125 µg/mL
C[C@@H](c1ncncc1F)[C@](O)(Cn1cncn1)c1ccc(F)cc1F ; endpoint: EC90 ; read by: broth dilution ; conditions: pH 7 ; strain: 10 isolates ; value: 0.5 µg/mL
C=CCc1ccc(OC)c(OC)c1 ; endpoint: MIC90 ; read by: turbidity ; strain: 3048 ; value: 350 µg/mL
CC(C)(O)c1cn(-c2ccc(Cl)cc2)nn1 ; endpoint: MIC ; read by: broth dilution ; strain: URM 4820 ; value: 256 µg/mL
COc1ccc(-c2c3c(N)c4c(nc3nc3c2c(C)nn3-c2ccccc2)CCC4)cc1 ; endpoint: MIC50 ; read by: broth dilution / absorbance ; strain: ATCC 10231 ; value: 250 µg/mL
CC[C@@H]([C@H](C)O)n1ncn(-c2ccc(N3CCN(c4ccc(OC[C@@H]5CO[C@@](Cn6cncn6)(c6ccc(F)cc6F)C5)cc4)CC3)cc2)c1=O ; endpoint: EC90 ; read by: broth dilution ; conditions: pH 6 ; strain: 15 isolates ; value: 0.03 µg/mL
CC(C)(O)c1cn(-c2ccc([N+](=O)[O-])cc2)nn1 ; dose: 2048 µg/mL ; endpoint: inhibition ; read by: broth dilution ; strain: URM 4125 ; value: 0%
CC(=O)N1CCN(c2ccc(OC[C@H]3CO[C@](Cn4ccnc4)(c4ccc(Cl)cc4Cl)O3)cc2)CC1 ; endpoint: EC90 ; read by: broth dilution ; conditions: pH 6 ; strain: 10 isolates ; value: 0.25 µg/mL
Cc1ccc(-c2c3c(N)c4c(nc3nc3c2c(C)nn3-c2ccccc2)CCCCC4)cc1 ; endpoint: MIC50 ; read by: broth dilution / absorbance ; strain: CCC 129 ; value: 31.2 µg/mL
C=CCc1ccc(Cn2cc(CN3CCN([C@H](C)[C@](O)(Cn4cncn4)c4ccc(F)cc4F)CC3)c3ccccc32)cc1 ; endpoint: MIC80 ; read by: resazurin ; strain: ATCC 36082 ; value: 16 µg/mL
Cc1ccc(-n2cc(C(C)(C)O)nn2)cc1C ; dose: 2048 µg/mL ; endpoint: inhibition ; read by: broth dilution ; strain: URM 4385 ; value: 0%
CCC(C)n1ncn(-c2ccc(N3CCN(c4ccc(OC[C@H]5CO[C@](Cn6cncn6)(c6ccc(Cl)cc6Cl)O5)cc4)CC3)cc2)c1=O ; endpoint: MFC50 ; strain: Fluconazole-resistant 4 isolates pooled ; value: >8 µg/mL
N=C(N)c1ccc2nc(-c3ccc(-c4nc5ccc(C(=N)N)cc5[nH]4)[nH]3)[nH]c2c1 ; endpoint: MFC ; strain: Isolate 3028 fluconazole-resistant ; value: 0.78 µg/mL
C[C@@H](N1CCN(Cc2cn(Cc3ccc(Cl)cc3Cl)c3ccc(C#N)cc23)CC1)[C@](O)(Cn1cncn1)c1ccc(F)cc1F ; endpoint: MIC80 ; read by: resazurin ; strain: ATCC 36082 ; value: 0.25 µg/mL

Repeating the final 3 entries:

SMILES,dose,endpoint,read by,conditions,strain,value
CCC(C)n1ncn(-c2ccc(N3CCN(c4ccc(OC[C@H]5CO[C@](Cn6cncn6)(c6ccc(Cl)cc6Cl)O5)cc4)CC3)cc2)c1=O,,MFC50,,,Fluconazole-resistant 4 isolates pooled,>8 µg/mL
N=C(N)c1ccc2nc(-c3ccc(-c4nc5ccc(C(=N)N)cc5[nH]4)[nH]3)[nH]c2c1,,MFC,,,Isolate 3028 fluconazole-resistant,0.78 µg/mL
C[C@@H](N1CCN(Cc2cn(Cc3ccc(Cl)cc3Cl)c3ccc(C#N)cc23)CC1)[C@](O)(Cn1cncn1)c1ccc(F)cc1F,,MIC80,resazurin,,ATCC 36082,0.25 µg/mL

Percent inhibition refers to the dose given; in toxicity tests it is the harm to the cells. MIC50, MIC90 and the like: level of inhibition, or share of isolates inhibited. ECn: concentration that inhibits the pathogen or its effect by n%. Blank or dashed fields: not listed here.